A mixed list of measured activities; the numbers were collected in NIAID ChemDB.

All rows: whole-cell or culture tests; species: Cryptococcus neoformans; read-out: MIC

An empty or dashed field is not shown. Lines come from different laboratories, so protocols vary.

structure	strain	read by	value
CCSc1cc(=S)ss1	ATCC 32264	-	62.5 µg/mL
Cc1ccc(-c2cc(-c3ccc(Cl)cc3)nc(/N=C3\C(=O)N(CN4CCCCC4)c4ccc(Cl)cc43)n2)cc1	-	-	39.06 µg/mL
C[C@H]1C(=O)CCC2[C@]3(C)CC[C@@]4(C)C5CC(C)(C)CC[C@]5(C)CC[C@]4(C)C3CC[C@@]21C	-	absorbance	>250 µg/mL
O=C1/C(=C/c2ccccc2)CCc2ccccc21	Farwania	-	25 µg/mL
CCCCCCCCCCCCSc1cc(=S)ss1	ATCC 32264	-	250 µg/mL
CC(=O)C[C@@H]1C[C@H]2[C@H]([C@@H]3c4[nH]c5ccccc5c4CCN13)[C@H](O)C13CC/C=C\CCCCN1CC21CC/C=C\CCCNC13	-	-	3.5 µg/mL
CCSSc1ssc(=S)c1-c1ccccc1	ATCC 32264	-	25 µg/mL
Cc1ccc(-c2cc(-c3ccc(Cl)cc3)nc(/N=C3\C(=O)N(CN(C)C)c4ccc(Cl)cc43)n2)cc1	-	-	39.06 µg/mL
CC(C)=CCC1=C(O)c2ccccc2C(=O)C1=O	-	-	<0.09 µg/mL
CCCCSc1cc(=S)ss1	ATCC 32264	-	50 µg/mL
COc1ccc2c(c1)C(=O)/C(=C/c1ccc3c(c1)CC3)CO2	93/V	-	25 µg/mL
C[C@H](n1nnc(CCN2CCN(c3ccccn3)CC2)n1)[C@](O)(Cn1cncn1)c1ccc(F)cc1F	LA314	-	8 µg/mL
COc1ccc(Cc2nc(N)[nH]c2Cc2ccc(OC)cc2)cc1	-	-	6.25 µg/mL
CCC(C)CC(C)CCCCCCCCC(=O)N[C@H]1C[C@@H](O)[C@@H](O)NC(=O)[C@@H]2[C@@H](O)CCN2C(=O)[C@H]([C@H](O)CC(N)=O)NC(=O)[C@H]([C@H](O)[C@@H](O)c2ccc(O)cc2)NC(=O)[C@@H]2C[C@@H](O)CN2C(=O)[C@H]([C@@H](C)O)NC1=O	20 isolates	-	4 µg/mL
COC1CC2CCC(C)C(O)(O2)C(=O)C(=O)N2CCCCC2C(=O)OC(C(C)CC2CCC(O)C(OC)C2)CC(=O)C(C)/C=C(\C)C(O)C(OC)C(=O)C(C)C[C@](C)(N(O)C(=O)NN2CCCCC2)/C=C/C=C/C=C/1C	WILD TYPE	-	1.56 µg/mL
Cc1ccc(-c2cc(-c3ccc(Cl)cc3)nc(/N=C3\C(=O)N(CN4CCOCC4)c4ccc(Cl)cc43)n2)cc1	-	-	78.12 µg/mL
CC(=O)OC(CCCC12OC(C(=O)O)C(O)(C(=O)O)C(C(=O)O)(O1)C(OC(=O)CCCCCC/C=C/c1ccccc1)C2O)C(C)C/C=C/c1ccccc1	58063	-	6.2 µg/mL
COc1ccc(Cc2nc(N=C3NC(=O)N(C)C3=O)n(C)c2Cc2ccc(O)cc2)cc1	-	-	12.5 µg/mL
C[C@H](n1nnnc1CCN1CCN(C(c2ccccc2)c2ccccc2)CC1)[C@](O)(Cn1cncn1)c1ccc(F)cc1F	LA314	-	8 µg/mL
S=c1cc(SCc2ccccc2)ss1	ATCC 32264	-	125 µg/mL
CC1(C)C(=O)CC[C@@]2(C)C1CC[C@]1(C)[C@@H]2[C@H](O)C=C2[C@@H]3C[C@@](C)(C(=O)O)CC[C@]3(C)CC[C@]21C	-	absorbance	47 µg/mL
Cc1ccc(/C=C2\COc3ccccc3C2=O)cc1	Farwania	-	12.5 µg/mL
Cc1ccc(-c2cc(-c3ccc(Cl)cc3)nc(/N=C3\C(=O)N(CN4CCCCC4)c4ccc(Br)cc43)n2)cc1	-	-	19.53 µg/mL
CCC(C)CC(C)CCCCCCCCC(=O)N[C@H]1C[C@@H](O)[C@@H](OCCN)NC(=O)[C@@H]2C[C@@H](O)CN2C(=O)[C@H]([C@H](O)CC(N)=O)NC(=O)[C@H]([C@H](O)[C@@H](O)c2ccc(O)cc2)NC(=O)[C@@H]2C[C@@H](O)CN2C(=O)[C@H]([C@@H](C)O)NC1=O	20 isolates	-	≤0.06 µg/mL
C[C@H](n1nnnc1CCN1CCN(c2cccc(Cl)c2)CC1)[C@](O)(Cn1cncn1)c1ccc(F)cc1F	LA314	-	>8 µg/mL
Cc1ccc(-c2cc(-c3ccc(Cl)cc3)nc(/N=C3\C(=O)N(CN4CCOCC4)c4ccccc43)n2)cc1	-	-	39.06 µg/mL
COC1CC2CCC(C)C(O)(O2)C(=O)C(=O)N2CCCCC2C(=O)OC(C(C)CC2CCC(O)C(OC)C2)CC(=O)C(C)/C=C(\C)[C@@](O)(c2ccc(C)s2)C(OC)C(=O)C(C)CC(C)/C=C/C=C/C=C/1C	FRR1	-	>100 µg/mL
N=C(N)c1ccc(OCCCC2CCN(CCCOc3ccc(C(=N)N)cc3)CC2)cc1	ATCC 90113	-	0.0313 µg/mL
COc1ccc(N2CCN(CCc3nnnn3[C@@H](C)[C@](O)(Cn3cncn3)c3ccc(F)cc3F)CC2)cc1	LA314	-	>16 µg/mL
C/C(=C\C(=O)CCCCCCCCC(=O)O)C[C@@H]1OC[C@H](C[C@H]2O[C@H]2[C@@H](C)[C@H](C)O)[C@@H](O)[C@H]1O	-	-	>128 µg/mL
Cc1ccc(-c2cc(-c3ccc(Cl)cc3)nc(/N=C3\C(=O)Nc4ccc(Br)cc43)n2)cc1	-	-	19.53 µg/mL
COc1ccc(N2CCN(CCc3nnn([C@@H](C)[C@](O)(Cn4cncn4)c4ccc(F)cc4F)n3)CC2)cc1	LA314	-	>16 µg/mL
COc1ccc(-c2c(C#N)c(OC)nc3c2CSc2ccc(Cl)cc2-3)cc1OC	93/V	-	25 µg/mL
O=C1/C(=C/c2ccc(O)c(O)c2)CCc2ccccc21	93/V	-	100 µg/mL
C[C@H](n1nnnc1CCN1CCN(c2ccc(Cl)cc2)CC1)[C@](O)(Cn1cncn1)c1ccc(F)cc1F	LA314	-	2 µg/mL

3 of the rows above, restated:

{"structure": "C[C@H](n1nnnc1CCN1CCN(c2ccc(Cl)cc2)CC1)[C@](O)(Cn1cncn1)c1ccc(F)cc1F", "strain": "LA314", "value": "2 µg/mL"}
{"structure": "O=C1/C(=C/c2ccc(O)c(O)c2)CCc2ccccc21", "strain": "93/V", "value": "100 µg/mL"}
{"structure": "CC(C)=CCC1=C(O)c2ccccc2C(=O)C1=O", "value": "<0.09 µg/mL"}